A mixed list of measured activities; the numbers were collected in NIAID ChemDB.

All rows: tests in culture; species: Mycobacterium tuberculosis

Lines come from different laboratories, so protocols vary. ECn is the concentration giving n% inhibition of infection, replication or growth. Fold resistance: result on the changed form divided by that on wild type. a–b is a range or a potency band. A number after MIC or MFC names an inhibition level or a share of isolates. MIC bound: limit read from a one-dose screen. Blank or dashed fields: not listed here. Inhibition is in % at the dose shown (toxicity tests: loss of growth or viability).

SMILES | dose | changes | strain | cell line | read-out | method | value
CCCOCC(O)CNCCNCC(O)COCCC | 6.25 µg/mL | - | H37Rv | - | inhibition | - | 12%
CN[C@H](CC(C)C)C(=O)N[C@H]1C(=O)N[C@@H](CC(N)=O)C(=O)N[C@H]2C(=O)N[C@H]3C(=O)N[C@H](C(=O)N[C@H](C(=O)O)c4cc(O)cc(O)c4-c4cc3ccc4O)[C@H](O)c3ccc(c(Cl)c3)Oc3cc2cc(c3O[C@@H]2O[C@H](CO)[C@@H](O)[C@H](O)[C@H]2O[C@H]2C[C@](C)(N)[C@H](O)[C@H](C)O2)Oc2ccc(cc2Cl)[C@H]1O | - | - | H37Rv | - | MIC | broth dilution | 0.032–0.064 µg/mL
N/C(=N/N=C/c1cccc(F)c1)c1ccccn1 | - | - | 1062 (THC-resistant) | - | MIC | - | 64 µg/mL
NC(=S)NC1C[C@@H]2CN(c3ccc(N4C[C@H](Cn5ccnn5)OC4=O)cc3F)C[C@@H]2C1 | - | - | H37Rv | - | MIC | broth dilution / resazurin | 0.5 µg/mL
Cc1ccc2nc(SCc3ccc(C#N)cc3)[nH]c2c1 | - | - | MY 332/88 | - | MIC | - | 62 µM
CCCCCCCCCS(=O)CC(=O)OC | - | - | H37Rv | - | MIC | - | 25 µg/mL
Nc1ncc[nH]c1=O | - | - | H37Rv | - | MIC bound | BACTEC | >12.5 µg/mL
Cc1ccc2nc(SCc3ccccc3[N+](=O)[O-])[nH]c2c1 | - | - | MY 332/88 | - | MIC | - | 62 µM
CC(C)C1=C(O)C2=C(C(=O)C1=O)[C@@]1(C)CCCC(C)(C)C1[C@H](O)[C@H]2O | - | - | MDR | - | MIC100 | MTT | 12.5 µg/mL
CC(C)c1cccc(C(C)C)c1NC(=O)C(=O)C1CCC2=C(Sc3ccccc3N2)C1=O | 12.5 µg/mL | - | H37Rv | - | inhibition | BACTEC | 44%
Cc1ccc2nc(SCc3cccc([N+](=O)[O-])c3)[nH]c2c1 | - | - | MY 332/88 | - | MIC | - | >62 µM
C[n+]1ccc(Nc2ccc(NC(=O)c3ccc(Nc4cc[n+](C)c5ccc([N+](=O)[O-])cc45)cc3[N+](=O)[O-])cc2)cc1 | - | - | H37Rv | VERO | MIC | - | 0.78 µg/mL
CC(=O)NC[C@H]1CN(c2ccc(N3C[C@H]4CC(NC(=O)Nc5ccccc5)C[C@H]4C3)c(F)c2)C(=O)O1 | - | - | H37Rv | - | MIC | broth dilution / resazurin | 2 µg/mL
CC(=O)OC1C2=C(C(=O)C(=O)C(C(C)C)=C2O)[C@@]2(C)CCCC(C)(C)[C@@H]2[C@@H]1OC(C)=O | - | - | H37Rv | - | MIC100 | MTT | >25 µg/mL
NC(=O)c1cnccn1 | - | - | Isolate K10452 | - | MIC | - | >500 µg/mL
CCO/C=C1\N=C(c2ccccc2Br)OC1=O | 12.5 µg/mL | - | H37Rv | - | inhibition | BACTEC | 5%
C=CC(C)(C)c1c2c(c(OC)c3ccc(=O)oc13)C(=O)CC(C)(C)O2 | - | - | - | - | MIC | - | 50 µg/mL
CC(C)[C@H]1CO[C@]23CC[C@H](N(Cc4ccc(C(F)(F)F)cn4)CC4CN(C(=O)OC(C)(C)C)C4)C[C@H]2CCC(=O)N13 | - | - | - | - | MIC | resazurin | 0.5–5 µM
COc1ccccc1/C=N/N=C(/N)c1ccccn1 | - | - | 1454 (THC-resistant) | - | MIC | - | 64 µg/mL
Cc1ccc(S(=O)(=O)N/N=C(\CCN2CCCC2)CC(c2ccccc2)c2c(O)c3ccccc3oc2=O)cc1 | 12.5 µg/mL | - | H37Rv | - | inhibition | BACTEC | 16%
COc1ccc(OC)c(/C=N/N=C(\N)c2ccccn2)c1 | - | - | H37Rv | - | MIC | - | 250 µg/mL
CC(=O)O[C@H]1C2=C(C(=O)C(=O)C(C(C)C)=C2O)[C@@]2(C)CCCC(C)(C)[C@@H]2[C@@H]1C(=O)Oc1ccc([N+](=O)[O-])cc1 | - | - | H37Rv | - | MIC100 | MTT | 25 µg/mL
Cc1cn2c(C(=O)NCc3ccc(N4CCN(c5ccc(C(F)(F)F)cn5)CC4)c(F)c3)c(C)nc2s1 | - | - | H37Rv | Human liver microsomes | EC50 | luminescence | 10.2 µM
CCc1ccc([C@H]2C[C@@H](C(F)(F)F)n3ncc(C(=O)NCc4ccc5c(c4)OCO5)c3N2)cc1 | - | MmpL3: Phe255Leu | H37Rv | - | fold resistance | fluorescence | 15
N/C(=N/N=C/c1cccc(Br)c1)c1ccccn1 | - | - | 1062 (THC-resistant) | - | MIC | - | 32 µg/mL
N#Cc1cc2[nH]c3ccc(O)cc3c2oc1=O | - | - | H37Rv | - | MIC99 | resazurin | 25 µg/mL
O=C(N/N=C/c1ccccc1Cl)c1ccccc1-c1nc2ccccc2[nH]1 | 0.031 µg/mL | - | H37Rv | - | inhibition | - | 35%
NC1C[C@@H]2CN(c3ccc(N4C[C@H](Cn5ccnn5)OC4=O)cc3F)C[C@@H]2C1 | - | - | H37Rv | - | MIC | broth dilution / resazurin | 2 µg/mL
CC(C)[C@H]1CO[C@]23CC[C@@H](N(CCF)Cc4ccc(C(F)(F)F)cc4)C[C@H]2CCC(=O)N13 | - | - | - | - | MIC | resazurin | 0.5–5 µM
C=CC(C)(C)c1cc(/C=C/C(=O)c2ccc(O)cc2)c(OC)cc1O | - | - | - | - | MIC | - | 7.1 µg/mL
O=C(N/N=C/c1ccccc1O)c1ccccc1-c1nc2ccccc2[nH]1 | 0.031 µg/mL | - | H37Rv | - | inhibition | - | 68%
N/C(=N/N=C/c1ccccc1Br)c1ccccn1 | - | - | 1454 (THC-resistant) | - | MIC | - | 16 µg/mL
CC(=O)O[C@H]1C2=C(C(=O)C(C(=O)Oc3ccc(Cl)cc3)=C(C(C)C)C2=O)[C@@]2(C)CCCC(C)(C)[C@@H]2[C@@H]1O | - | - | H37Rv | - | MIC100 | MTT | 25 µg/mL
Cc1cccc(CSc2nc3ccc(C)cc3[nH]2)c1 | - | - | MY 332/88 | - | MIC | - | 32 µM
O=C(N/N=C/c1ccco1)c1ccccc1-c1nc2ccccc2[nH]1 | - | - | H37Rv | - | EC50 | - | >0.031 µg/mL
CC(=O)O[C@H]1C2=C(C(=O)C(C(=O)Oc3ccc(Cl)cc3)=C(C(C)C)C2=O)[C@@]2(C)CCCC(C)(C)[C@@H]2C1C(=O)Oc1ccc(Cl)cc1 | - | - | MDR | - | MIC100 | MTT | >25 µg/mL
CC(C)[C@H]1CO[C@]23CC[C@H](N(Cc4ccc(C(F)(F)F)cc4)CC4CN(C(=O)OC(C)(C)C)C4)C[C@H]2CCC(=O)N13 | - | - | - | - | MIC | resazurin | <0.5 µM
CC12C[C@H]3OC(=O)[C@@H]1COC14OC5([C@H]2C1=O)[C@@](O)(CC[C@H]1[C@H]4CC=C2CC=CC(=O)[C@@]21C)C(=O)O[C@@]35C | - | - | - | - | MIC | - | >128 µg/mL
COc1ccc(C2C(Cl)C(=O)N2NC(=O)c2ccccc2-c2nc3ccccc3[nH]2)cc1 | - | - | H37Rv | - | EC50 | - | <0.031 µg/mL
Cc1ccc2nc(SCc3ccc(F)c(F)c3)[nH]c2c1 | - | - | MY 332/88 | - | MIC | - | >32 µM
COc1cc2c(cc1C)n([O-])c(C)c(C(=O)C/C(=N\NC(=O)C[N+](C)(C)C)C(=O)Nc1cccc(Cl)c1C)[n+]2=O.[Cl-] | - | - | H37Rv | - | MIC bound | BACTEC | >12.5 µg/mL
CC(=O)NC[C@H]1CN(c2ccc(N3C[C@H]4CC(NC(N)=S)C[C@H]4C3)c(F)c2)C(=O)O1 | - | - | H37Rv | - | MIC | broth dilution / resazurin | 0.5 µg/mL
CSc1nnc2c(=O)n(C)c(=O)n(C)c2n1 | - | - | H37Rv | - | MIC bound | BACTEC | >12.5 µg/mL
Cc1ccc2nc(SCc3ccc(C(F)(F)F)cc3)[nH]c2c1 | - | - | MY 332/88 | - | MIC | - | 32 µM
Nc1nc(Cl)cc(Nc2ccc(CCO)cc2)n1 | 12.5 µg/mL | - | H37Rv | - | inhibition | BACTEC | 46%
CCCCCCCCCS(=O)CC(N)=O | - | - | H37Rv | - | MIC | - | 6.25 µg/mL
O=C(O)C1OC(Oc2ccc3oc4ccccc4c(=O)c3c2)C(O)C(O)C1O | 12.5 µg/mL | - | H37Rv | - | inhibition | BACTEC | 8%
Cc1ccc2nc(SCc3cccc(Br)c3)[nH]c2c1 | - | - | MY 332/88 | - | MIC | - | 32 µM
O=C1CCCCc2ccc(O)c(c2)Oc2ccc(cc2O)CC1 | - | - | H37Rv | - | MIC | broth dilution | 200 µg/mL
CSC(=S)N/N=C/c1cccc(C)n1 | - | - | EMB-R | - | MIC | - | >12.8 µg/mL
CN=C(Cc1cc(Br)c(OCCCN)c(Br)c1)C(=O)NCCCCC(=N)N | - | - | - | - | MIC | - | 3 µg/mL
CC(C)[C@H]1CO[C@]23CC[C@H](N(Cc4ccc(C(F)(F)F)cc4)CC4CCCCN4C(=O)OC(C)(C)C)C[C@H]2CCC(=O)N13 | - | - | - | - | MIC | resazurin | <0.5 µM
COc1ccc2cc1Oc1cc(ccc1OC)CCC(NCc1ccccc1)CCCC2 | - | - | H37Rv | - | MIC | broth dilution | 25 µg/mL
C=CCNC(=O)c1cncc(C(=O)O)c1 | 12.5 µg/mL | - | H37Rv | - | inhibition | BACTEC | 10%
CC(=O)NC1C[C@@H]2CN(c3ccc(N4C[C@H](Cn5ccnn5)OC4=O)cc3F)C[C@@H]2C1 | - | - | H37Rv | - | MIC | broth dilution / resazurin | 1 µg/mL
CN(C)c1ccc(/C=N/NC(=O)c2ccccc2-c2nc3ccccc3[nH]2)cc1 | 0.031 µg/mL | - | H37Rv | - | inhibition | - | 33%
C/C=C(/C)C(=O)OC1CC(C)(C)CC2C3=CCC4C5(C)CC[C@H](O)C(C)(C)C5CC[C@@]4(C)[C@]3(C)CC[C@@]12C(=O)O | - | - | H37Rv | - | MIC | - | 50 µg/mL
COc1cc(/C=N/NC(=O)c2ccccc2-c2nc3ccccc3[nH]2)ccc1O | 0.031 µg/mL | - | H37Rv | - | inhibition | - | 64%
COC(=O)[C@]1(C)CCC[C@]2(C)C3=CC(=O)[C@@]4(C(C)C)O[C@H]4[C@]3(O)CC[C@@H]12 | - | - | H37Rv | - | MIC bound | BACTEC | >12.5 µg/mL
COc1cc(CCCCC(=O)CCc2ccc(OC)c(Br)c2)ccc1O | - | - | H37Rv | - | MIC | broth dilution | >200 µg/mL
CC(C)[C@H]1CO[C@]23CC[C@H](N(Cc4ccc(C(F)(F)F)cc4)CC4CCCCC4)C[C@H]2CCC(=O)N13 | - | - | - | - | MIC | resazurin | <0.5 µM
S=C(N/N=C/c1ccccn1)SCc1ccccc1 | 128 µg/mL | - | H37Rv | - | inhibition | BACTEC | 95%
CC(=O)O[C@H]1C2=C(C(=O)C(OC(=O)c3ccccc3)=C(C(C)C)C2=O)[C@@]2(C)CCCC(C)(C)[C@@H]2[C@@H]1OC(=O)c1ccccc1 | - | - | H37Rv | - | MIC100 | MTT | >25 µg/mL
Cc1ccc2[nH]c3cc(C#N)c(=O)oc3c2c1 | - | - | H37Rv | - | MIC99 | resazurin | 0.3 µg/mL
N/C(=N/N=C/c1ccc(Br)cc1)c1ccccn1 | - | - | H37Rv | - | MIC | - | 16 µg/mL
COc1ccc(/C=N/NC(=O)c2ccccc2-c2nc3ccccc3[nH]2)cc1 | 0.031 µg/mL | - | H37Rv | - | inhibition | - | 46%
O=C1OC(c2ccccc2)=N/C1=C\c1ccc(Oc2ccc(Cl)c(Cl)c2)cc1 | 12.5 µg/mL | - | H37Rv | - | inhibition | BACTEC | 42%
Cc1ccc(/C=N/N=C(/N)c2ccccn2)cc1 | - | - | 1814 (THC-resistant) | - | MIC | - | 32 µg/mL
CCCCCCCCS(=O)(=O)CC(=O)O | - | - | H37Rv | - | MIC | - | 12.5 µg/mL
Cc1ccc2nc(SCc3ccccc3)[nH]c2c1 | - | - | MY 332/88 | - | MIC | - | 62 µM
Cc1ccc(S(=O)(=O)Oc2ccc3oc4cccc(NCCN(C)C)c4c(=O)c3c2)cc1 | - | - | H37Rv | - | MIC | BACTEC | ≥12.5 µg/mL
N/C(=N/N=C/c1ccccc1)c1ccccn1 | - | - | 1454 (THC-resistant) | - | MIC | - | 64 µg/mL
CO[C@H]1/C=C/O[C@@]2(C)Oc3c(C)c(O)c4c(O)c(c(/C=N/N5CCN(C6CCCC6)CC5)c(O)c4c3C2=O)NC(=O)/C(C)=C\C=C\[C@H](C)[C@H](O)[C@@H](C)[C@@H](O)[C@@H](C)[C@H](OC(C)=O)[C@@H]1C | - | - | 13268 | - | MIC | - | 0.04 µg/mL
COC(=O)CC1OCC=C2CN3CCC45C6=CC(=O)C(=O)C([N+](=O)[O-])=C6NC4C1C2CC35 | 6.25 µg/mL | - | H37Rv | - | inhibition | - | 7%
COc1ccc2cc1Oc1cc(ccc1OC)CC/C(=N\O)CCCC2 | - | - | H37Rv | - | MIC | broth dilution | >200 µg/mL
CCOC(=O)c1c(C)nc2c(c1-c1cn(-c3ccccc3)nc1-c1ccccc1)C(=O)c1ccccc1-2 | 6.25 µg/mL | - | H37Rv | - | inhibition | resazurin | 35%
CCCCCCCCCC(=O)N[C@H]1[C@H](Oc2c3cc4cc2Oc2ccc(cc2Cl)[C@@H](O[C@@H]2O[C@H](CO)[C@@H](O)[C@H](O)[C@H]2NC(C)=O)[C@@H]2NC(=O)[C@H](NC(=O)[C@@H]4NC(=O)[C@H]4NC(=O)[C@@H](Cc5ccc(c(Cl)c5)O3)NC(=O)[C@H](N)c3ccc(O)c(c3)Oc3cc(O)cc4c3)c3ccc(O)c(c3)-c3c(O[C@H]4O[C@H](CO)[C@@H](O)[C@H](O)[C@@H]4O)cc(O)cc3[C@H](C(=O)O)NC2=O)O[C@H](CO)[C@@H](O)[C@@H]1O | - | - | L1912 | - | MIC | - | 64 µg/mL
O=C(NC(=S)c1ccco1)NS(=O)(=O)c1ccc(Cl)cc1 | 6.25 µg/mL | - | H37Rv | - | inhibition | resazurin | -31%
CC(C)c1ccc2[nH]c3cc(C#N)c(=O)oc3c2c1 | - | - | H37Rv | - | MIC99 | resazurin | 1.5 µg/mL
O=C(O)c1[nH]c(=O)[nH]c(=O)c1F | 12.5 µg/mL | - | H37Rv | - | inhibition | BACTEC | 97%
CCCCCCCCS(=O)(=O)CC(=O)OCc1ccccc1 | - | - | H37Rv | - | MIC | - | 6.25 µg/mL